According to article PMC13289030, “Qualification of the human Reconstructed Intestine Micronuclei Cytome assay for site-of-contact genotoxic hazard identification” (NAM journal, 2025):

Tested on: EpiIntestinal™ microtissues
Test: RICyt assay: micronuclei (MN) cytome scoring in EpiIntestinal microtissues after 10-day repeated apical exposure

Aflatoxin B1
Conclusion (RICyt result compared with expected in vitro/in vivo results): Correct
